According to PubChem BioAssay (NCATS):
The list shows a part of the results, in another mix than the full data. Inconclusive results are not listed. The source made the active and inactive calls. Calls come from the whole dose curve; as a rule, active = well fitted curve in the direction sought with a large enough effect; inconclusive = small, poorly fitted or top-dose-only effect, or another doubt; inactive = no such curve, though single readings can be large; an effect the other way counts as inactive or inconclusive.

Chains of the proteins cited; added tags and fusions are not shown. Lines headed by an entry give the natural chain unless they say otherwise; changes in a name come on top.
UniProt O15648: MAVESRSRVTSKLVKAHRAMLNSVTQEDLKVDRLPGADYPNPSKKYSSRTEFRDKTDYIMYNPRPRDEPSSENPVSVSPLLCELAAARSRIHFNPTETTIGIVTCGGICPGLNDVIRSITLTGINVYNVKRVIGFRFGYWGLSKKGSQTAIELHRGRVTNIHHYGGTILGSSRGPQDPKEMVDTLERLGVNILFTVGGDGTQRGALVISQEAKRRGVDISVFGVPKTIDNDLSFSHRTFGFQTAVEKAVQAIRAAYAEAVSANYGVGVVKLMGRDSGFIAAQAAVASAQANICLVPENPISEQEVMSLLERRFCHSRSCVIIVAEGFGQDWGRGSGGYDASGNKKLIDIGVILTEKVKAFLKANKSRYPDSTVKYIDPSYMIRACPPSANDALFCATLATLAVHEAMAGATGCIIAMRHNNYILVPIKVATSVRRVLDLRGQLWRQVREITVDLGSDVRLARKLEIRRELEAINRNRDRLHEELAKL

Key:
[1] = target: ATP-dependent 6-phosphofructokinase (Trypanosoma brucei brucei) (UniProt O15648); assay: qHTS Assay to Find Inhibitors of T. brucei phosphofructokinase: hit validation (AID 492961);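 note: luminescence reports ADP formed as PFK phosphorylates fructose-6-phosphate with ATP; % is set by controls: 0 for no effect and ±100 for the full control effect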; settings: T. brucei PFK, ADP-Glo luminescence; at 51.4 µM (top of the series)
Outline: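 Measures ADP output of PFK (1.25 nM) at 0.1 mM ATP, 0.5 mM F6P, pH 8.0 TEA buffer with 5 mM MgCl2. No-enzyme wells define full inhibition; uninhibited enzyme wells define zero.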

[2] = qHTS profiling for inhibitors of Plasmodium falciparum proliferation (AID 504749);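 note: 0% = DMSO vehicle and full inhibition = artemisinin control; nearly all actives have a fitted effect of over 60% in size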; settings: P. falciparum in erythrocytes, SYBR Green DNA, 72 h, at 28.7 µM (top of the series)
Outline: (§1)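 Three-day growth assay of blood-stage parasites in erythrocytes (0.3% parasitemia, 2.5% hematocrit) at 37 C, 5% CO2, quantified by SYBR Green DNA staining after overnight detergent lysis.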

3D7 = assay: as above; settings: P. falciparum in erythrocytes, SYBR Green DNA, 72 h; at 28.7 µM (top of the series)
Outline: as §1

AA1029 = assay: as above; settings: P. falciparum in erythrocytes, SYBR Green DNA, 72 h; at 28.7 µM (top of the series)
Outline: as §1

AS120 = assay: as above; settings: P. falciparum in erythrocytes, SYBR Green DNA, 72 h; at 28.7 µM (top of the series)
Outline: as §1

ATS189 = assay: as above; settings: P. falciparum in erythrocytes, SYBR Green DNA, 72 h; at 28.7 µM (top of the series)
Outline: as §1

ATS95 = assay: as above; settings: P. falciparum in erythrocytes, SYBR Green DNA, 72 h; at 28.7 µM (top of the series)
Outline: as §1

C2A = assay: as above; settings: P. falciparum in erythrocytes, SYBR Green DNA, 72 h; at 28.7 µM (top of the series)
Outline: as §1

CP185 = assay: as above; settings: P. falciparum in erythrocytes, SYBR Green DNA, 72 h; at 28.7 µM (top of the series)
Outline: as §1

CP191 = assay: as above; settings: P. falciparum in erythrocytes, SYBR Green DNA, 72 h; at 28.7 µM (top of the series)
Outline: as §1

CP192 = assay: as above; settings: P. falciparum in erythrocytes, SYBR Green DNA, 72 h; at 28.7 µM (top of the series)
Outline: as §1

CP194 = assay: as above; settings: P. falciparum in erythrocytes, SYBR Green DNA, 72 h; at 28.7 µM (top of the series)
Outline: as §1

CP201 = assay: as above; settings: P. falciparum in erythrocytes, SYBR Green DNA, 72 h; at 28.7 µM (top of the series)
Outline: as §1

CP203 = assay: as above; settings: P. falciparum in erythrocytes, SYBR Green DNA, 72 h; at 28.7 µM (top of the series)
Outline: as §1

CP211 = assay: as above; settings: P. falciparum in erythrocytes, SYBR Green DNA, 72 h; at 28.7 µM (top of the series)
Outline: as §1

CP215 = assay: as above; settings: P. falciparum in erythrocytes, SYBR Green DNA, 72 h; at 28.7 µM (top of the series)
Outline: as §1

CP217 = assay: as above; settings: P. falciparum in erythrocytes, SYBR Green DNA, 72 h; at 28.7 µM (top of the series)
Outline: as §1

CP237 = assay: as above; settings: P. falciparum in erythrocytes, SYBR Green DNA, 72 h; at 28.7 µM (top of the series)
Outline: as §1

CP238 = assay: as above; settings: P. falciparum in erythrocytes, SYBR Green DNA, 72 h; at 28.7 µM (top of the series)
Outline: as §1

CP247 = assay: as above; settings: P. falciparum in erythrocytes, SYBR Green DNA, 72 h; at 28.7 µM (top of the series)
Outline: as §1

CP250 = assay: as above; settings: P. falciparum in erythrocytes, SYBR Green DNA, 72 h; at 28.7 µM (top of the series)
Outline: as §1

CP252 = assay: as above; settings: P. falciparum in erythrocytes, SYBR Green DNA, 72 h; at 28.7 µM (top of the series)
Outline: as §1

CP256 = assay: as above; settings: P. falciparum in erythrocytes, SYBR Green DNA, 72 h; at 28.7 µM (top of the series)
Outline: as §1

CP260 = assay: as above; settings: P. falciparum in erythrocytes, SYBR Green DNA, 72 h; at 28.7 µM (top of the series)
Outline: as §1

CP262 = assay: as above; settings: P. falciparum in erythrocytes, SYBR Green DNA, 72 h; at 28.7 µM (top of the series)
Outline: as §1

CP265 = assay: as above; settings: P. falciparum in erythrocytes, SYBR Green DNA, 72 h; at 28.7 µM (top of the series)
Outline: as §1

CP266 = assay: as above; settings: P. falciparum in erythrocytes, SYBR Green DNA, 72 h; at 28.7 µM (top of the series)
Outline: as §1

CP268 = assay: as above; settings: P. falciparum in erythrocytes, SYBR Green DNA, 72 h; at 28.7 µM (top of the series)
Outline: as §1

CP269 = assay: as above; settings: P. falciparum in erythrocytes, SYBR Green DNA, 72 h; at 28.7 µM (top of the series)
Outline: as §1

O=C(OC1CN2CCC1CC2)c1ccccc1 (stereo not given)
inactive: activity change, negative = inhibition [1] -1.8% | activity, negative = inhibition ([2]; parasite line A) -0.149% | activity, negative = inhibition ([2]; parasite line B) 3.2% | activity, negative = inhibition (3D7) 8.02% | activity, negative = inhibition (AA1029) 2.59% | activity, negative = inhibition (AS120) 6.18% | activity, negative = inhibition (ATS189) -11.1% | activity, negative = inhibition (ATS95) -4.39% | activity, negative = inhibition (C2A) -6.12% | activity, negative = inhibition (CP185) -1.12% | activity, negative = inhibition (CP191) 5.09% | activity, negative = inhibition (CP192) 3.72% | activity, negative = inhibition (CP194) -0.119% | activity, negative = inhibition (CP201) -13.3% | activity, negative = inhibition (CP203) -0.123% | activity, negative = inhibition (CP211) 10.4% | activity, negative = inhibition (CP215) 4.58% | activity, negative = inhibition (CP217) 0.243% | activity, negative = inhibition (CP237) -9.41% | activity, negative = inhibition (CP238) 2.14% | activity, negative = inhibition (CP247) 5% | activity, negative = inhibition (CP250) 4.25% | activity, negative = inhibition (CP252) -10.2% | activity, negative = inhibition (CP256) 3.53% | activity, negative = inhibition (CP260) -2.21% | activity, negative = inhibition (CP262) -1.46% | activity, negative = inhibition (CP265) 1.19% | activity, negative = inhibition (CP266) 10.1% | activity, negative = inhibition (CP268) -4.26% | activity, negative = inhibition (CP269) 2.82%
